From patent US6939854B2 (priority 2000, dated 2005)
*: point of attachment. Boc = CC(C)(C)OC(=O)*; OtBu = CC(C)(C)O*

Assay: general procedure: solution-phase peptide synthesis; DCC/HOBt; N-hydroxysuccinimide ester; PyAOP/DIEA; EDCI/HOAt

Row | Substance | step yield (coupling step) [%] | step yield (late stage modification step) [%]
1 | (2-pyrazinecarbonyl)-Val-Val-Hyp(OBzl)-(1R)-1-amino-3-(4-trifluoromethyl)phenylpropylboronic acid (+)-pinanediol ester | 45 | 
2 | Boc-D(OtBu)E(OtBu)VVP-OH | 82 | 
3 | H-Asp-Glu-Val-Val-Pro-(1R)-1-amino-3-(2,4-dimethyl)phenylpropylboronic acid (+)-pinanediol ester | 17 | 
4 | H-Asp-Glu-Val-Val-Pro-(1R)-1-amino-3-(2,5-dimethyl)phenylpropylboronic acid (+)-pinanediol ester | 8 | 
5 | H-Asp-Glu-Val-Val-Pro-(1R)-1-amino-3-(4-trifluoromethyl)phenylpropylboronic acid (+)-pinanediol ester | 16 | 
6 | H-Asp-Glu-Val-Val-Pro-(1R)-1-amino-3-phenylpropylboronic acid (+)-pinanediol ester |  | 100
7 | H-Asp-Glu-Val-Val-Pro-(1R)-1-amino-5-methylhexylboronic acid (+)-pinanediol ester |  | 7.5
